Measured values from several laboratories, pooled; numbers as filed in NIAID ChemDB.

Common to all: growth or infection tests; agent: HIV-1; measure: inhibition

Percent inhibition refers to the dose given; in toxicity tests it is the harm to the cells. An empty or dashed field is not shown. Rows are shuffled and stem from different studies.

{"smiles": "Cc1ccc(C)c2c1NC(=O)C2CC(=O)N[C@@H](Cc1ccccc1)C(=O)N(C)c1cccc(Cl)c1", "strain or isolate": "NL4-3", "method": "fluorescence", "tested at": "2 µM", "value": "27%"}
{"smiles": "Cc1cn([C@@H]2C[C@H](CO)N(C#N)C2)c(=O)[nH]c1=O", "tested at": "100 µM", "value": "0%"}
{"smiles": "CS(C)=O", "strain or isolate": "LAI", "tested at": "16.7 µM", "value": "2%"}
{"smiles": "C=C(C)[C@@H]1CC[C@]2(C(=O)O)CC[C@]3(C)C(CCC4[C@@]5(C)CC[C@H](OC(=O)CN(OC)C6O[C@H](CO)[C@@H](O)[C@H](O)[C@@H]6O)C(C)(C)C5CC[C@]43C)C12", "strain or isolate": "IIIB", "method": "cytopathic effect", "tested at": "10 µM", "value": "12%"}
{"smiles": "O=S(=O)(NCCN/C=C/c1ccccc1)c1cccc2cnccc12", "strain or isolate": "LAI", "tested at": "16.7 µM", "value": "6%"}
{"smiles": "C=C(C)[C@@H]1CC[C@]2(C(=O)O)CC[C@]3(C)C(CCC4[C@@]5(C)CC[C@H](OC(=O)CN(OC)C6O[C@@H](CO)[C@H](O)[C@@H](O)[C@@H]6O)C(C)(C)C5CC[C@]43C)C12", "strain or isolate": "IIIB", "method": "cytopathic effect", "tested at": "10 µM", "value": "1%"}
{"smiles": "CCCCCCCCCCCCCCCC(=O)NC1C(COP(=O)(O)OC2CC(COP(=O)(O)OC3C(O)C(CO)OC3n3cnc4c(N)ncnc43)OC2n2cnc3c(N)ncnc32)OC(n2cnc3c(N)ncnc32)C1O", "method": "p24", "tested at": "300 µM", "value": "100%"}
{"smiles": "NCCNS(=O)(=O)c1cccc2cnccc12", "strain or isolate": "LAI", "tested at": "16.7 µM", "value": "17.5%"}
{"smiles": "CCCCCCCCCCCCCCCC(=O)NC1C(COP(=O)(O)OC2CC(COP(=O)(O)OC3CC(CO)OC3n3cnc4c(N)ncnc43)OC2n2cnc3c(N)ncnc32)OC(n2cnc3c(N)ncnc32)C1O", "method": "syncytia", "tested at": "100 µM", "value": "91%"}
{"smiles": "Cc1cccc2c1NC(=O)C2CC(=O)N[C@@H](Cc1ccccc1)C(=O)N(C)c1cccc(Cl)c1", "strain or isolate": "NL4-3", "method": "fluorescence", "tested at": "20 µM", "value": "85%"}
{"smiles": "C=C(C)[C@@H]1CC[C@]2(C(=O)O)CC[C@]3(C)C(CCC4[C@@]5(C)CC[C@H](OC(=O)CN(OC)[C@H]6OC[C@H](O)[C@@H](O)[C@H]6O)C(C)(C)C5CC[C@]43C)C12", "strain or isolate": "IIIB", "method": "cytopathic effect", "tested at": "10 µM", "value": "5%"}
{"smiles": "CN(C(=O)[C@H](Cc1ccccc1)NC(=O)Cc1cccc2ccccc12)c1ccc(Cl)cc1", "strain or isolate": "NL4-3", "method": "fluorescence", "tested at": "2 µM", "value": "98%"}
{"smiles": "O=S(=O)(c1cccc2cnccc12)N1CCCNCC1", "strain or isolate": "LAI", "tested at": "16.7 µM", "value": "37.5%"}
{"smiles": "CCN(C(=O)[C@H](Cc1ccccc1)NC(=O)CN1C(=O)NC2(CCCCC2)C1=O)c1ccccc1", "strain or isolate": "NL4-3", "method": "fluorescence", "tested at": "20 µM", "value": "92%"}
{"smiles": "Cc1cn([C@@H]2C[C@H](CO)N(CCC#N)C2)c(=O)[nH]c1=O", "tested at": "100 µM", "value": "0%"}
{"smiles": "Cc1ccc(C)c2c1NC(=O)C2CC(=O)N[C@@H](Cc1ccccc1)C(=O)N(C)c1ccc(F)cc1", "strain or isolate": "NL4-3", "method": "fluorescence", "tested at": "2 µM", "value": "0%"}
{"smiles": "Cc1cn([C@@H]2C[C@H](CO)N(N=O)C2)c(=O)[nH]c1=O", "tested at": "100 µM", "value": "0%"}

Again, the opening 2 rows:

smiles | strain or isolate | method | tested at | value
Cc1ccc(C)c2c1NC(=O)C2CC(=O)N[C@@H](Cc1ccccc1)C(=O)N(C)c1cccc(Cl)c1 | NL4-3 | fluorescence | 2 µM | 27%
Cc1cn([C@@H]2C[C@H](CO)N(C#N)C2)c(=O)[nH]c1=O |  |  | 100 µM | 0%